Measured values published in patent US9051591B2, “Bacterium of enterobacteriaceae family producing L-aspartic acid or L-aspartic acid-derived metabolites and a method for producing L-aspartic acid or L-aspartic acid-derived metabolites” (AJINOMOTO CO., INC., priority 2010, dated 2015).

Tests used:
Test in all cases: purified protein, by the assay type
NADPH = details: other: Oxaloacetate reductive amination
NADH = details: other: Oxaloacetate reductive amination; Michaelis-Menten plots
NADP^+ = details: other: Aspartate oxidative deamination; Michaelis-Menten plots

“Ralstonia eutropha ADH-Re (Cupriavidus necator H16)” was tested, and the Km (NADPH; Hill kinetic equation plots) was 390 ± 40 µM, the Vmax (NADPH; Hill kinetic equation plots) was 137 µmol/min/mg and the kcat (NADPH; Hill kinetic equation plots) was 68.3 s⁻¹. The kcat/Km (NADPH; Hill kinetic equation plots) was 183000 M⁻¹ s⁻¹, the Km (NADPH; Michaelis-Menten plots) was 900 ± 300 µM and the Vmax (NADPH; Michaelis-Menten plots) was 220 µmol/min/mg. For the same substance, the kcat (NADPH; Michaelis-Menten plots) was 107 s⁻¹, the kcat/Km (NADPH; Michaelis-Menten plots) was 117000 M⁻¹ s⁻¹ and the Km (NADH) was 870 µM. For the same substance, the Vmax (NADH) was 610 ± 40 µmol/min/mg, the kcat (NADH) was 303.33 ± 18.33 s⁻¹ and the kcat/Km (NADH) was 350000 M⁻¹ s⁻¹. It also gave a Km (NADP^+) of 2700 ± 400 µM, a Vmax (NADP^+) of 10.9 µmol/min/mg and a kcat (NADP^+) of 5.5 s⁻¹. It also gave a kcat/Km (NADP^+) of 2000 M⁻¹ s⁻¹.
